Pooled drug test results. Numbers come from NIAID ChemDB, via PubChem.

Common to all: tests in culture; organism: Candida albicans; read-out: MIC

Lines come from different laboratories, so protocols vary. Blank or dashed fields: not listed here. Two numbers with a dash give a range or band.

SMILES,strain,method,value
CCn1cc(-c2ccc(Cl)cc2Cl)c(C(c2ccccc2)n2ccnc2)c1,-,-,0.33 µg/mL
COc1ccc(Br)cc1/C=N/NC(=O)Cc1cccc(C)c1O,-,MTT,>150 µM
ON=C1CC(c2ccc(Cl)cc2)N(OCCc2nc3ccccc3[nH]2)C(c2ccc(Cl)cc2)C1,-,-,12.5 µg/mL
Cc1ccc(C(=O)CC(N/N=C(\N)c2ccccn2)c2ccccn2)cc1,C873,-,80 µg/mL
Cn1cc(NC(=O)c2cc(NC(=O)c3cc(NC(=O)c4nsc(NCCN5CCNCC5)c4Cl)cn3C)cn2C)cc1C(=O)NCCN1CCNCC1,38247,-,4 µg/mL
O=C(N/N=C/c1ccccc1OCCCl)c1ccccc1SSc1ccccc1C(=O)N/N=C/c1ccccc1OCCCl,-,-,>250 µg/mL
COc1cc(O)c2c(=O)c(-c3ccc(O)cc3)coc2c1Cl,-,agar diffusion / agar,23–35 µM
Cc1c(Sc2ccccc2)[n+](=O)c2cc(C(F)(F)F)ccc2n1[O-],Clinical isolate 2,-,31.25 µg/mL
Cc1cccc(C(=O)CC(N/N=C(\N)c2ccccn2)c2ccncc2)c1,C873,-,80 µg/mL
c1ccc(C(c2ccc(-n3cccc3)cc2)n2ccnc2)cc1,-,-,6.8 µg/mL
C[C@@H]1[C@H](O)[C@@H](C)/C=C/C=C/C=C/C=C/C=C/C=C/C=C/[C@H](OC2O[C@H](C)[C@@H](O)[C@H](N(CCCN)CCCN)[C@@H]2O)C[C@@H]2O[C@](O)(C[C@@H](O)C[C@@H](O)[C@H](O)CC[C@@H](O)C[C@@H](O)CC(=O)O[C@H]1C)C[C@H](O)[C@H]2C(=O)NCCCN1CCOCC1,CAF2-1,-,0.25 µM
C=C1C[C@@H]2C[C@@H]3CCO[C@@H](O3)c3cccc(c3)/C=C\C[C@H]3O[C@@H](/C(C)=C/C#N)[C@H](C)[C@@H](OC(=O)/C=C/C[C@@H](C1)O2)[C@H]3C,ATCC 14503,broth dilution,>64 µg/mL
CCOc1cc2c(cc1F)n([O-])c(C)c(S(=O)(=O)c1ccccc1)[n+]2=O,Clinical isolate 9,-,15.6 µg/mL
N/C(=N\NC(CC(=O)c1cccc(Cl)c1)c1ccccn1)c1ccccn1,C873,-,80 µg/mL
Cn1cc(NC(=O)c2cc(NC(=O)c3cc(NC(=O)c4nsc(NCCNc5ncccn5)c4Cl)cn3C)cn2C)cc1C(=O)NCCN1CCOCC1,38247,-,>32 µg/mL
ON=C1CC(c2ccc(Cl)cc2)N(OCCc2nc3ccccc3o2)C(c2ccc(Cl)cc2)C1,-,-,50 µg/mL
CN(C)CCCNc1snc(C(=O)Nc2cc(C(=O)Nc3cc(C(=O)Nc4cc(C(=O)NCCCCN)n(C)c4)n(C)c3)n(C)c2)c1Cl,38247,-,8 µg/mL
N/C(=N\NC(CC(=O)c1ccccc1)c1ccncc1)c1ccccn1,C873,-,80 µg/mL
CC(=O)OC(CCCCCCC(O)c1ccccc1)C1=CCCOC1=O,-,-,>100 µg/mL
N/C(=N\NC(CC(=O)c1ccc(Cl)cc1)c1ccncc1)c1ccccn1,C873,-,80 µg/mL
COc1ccc(C2CC(=NO)CC(c3ccc(OC)cc3)N2OCCc2nc3ccccc3[nH]2)cc1,-,-,25 µg/mL
C=C1C[C@@H]2C[C@@H]3CCO[C@@H](O3)c3coc(n3)/C=C/C[C@H]3O[C@@H](/C(C)=C/c4coc(C[C@]5(O)C[C@H](OC)C[C@H]([C@H](O)/C=C(C)/C=C/[C@@H](C/C=C/Cl)OC)O5)n4)[C@H](C)[C@@H](OC(=O)/C=C\C[C@@H](C1)O2)[C@H]3C,ATCC 14503,broth dilution,2 µg/mL
Cn1cc(NC(=O)c2cc(NC(=O)c3cc(NC(=O)c4nsc(NCCN)c4Cl)cn3C)cn2C)cc1C(=O)NCCC1=NCCN1,38247,-,>32 µg/mL
CCOc1cc2c(cc1F)n([O-])c(C)c(Cl)[n+]2=O,Clinical isolate 9,-,62.5 µg/mL
C=C1C[C@@H]2C[C@@H]3CCO[C@@H](O3)c3coc(n3)/C=C/C[C@H]3O[C@@H](/C(C)=C/I)[C@H](C)[C@@H](OC(=O)/C=C\C[C@@H](C1)O2)[C@H]3C,ATCC 14503,broth dilution,>64 µg/mL
C[C@@H]1[C@H](O)[C@@H](C)/C=C/C=C/C=C/C=C/C=C/C=C/C=C/[C@H](OC2O[C@H](C)[C@@H](O)[C@H](N(CCCN)CCCN)[C@@H]2O)C[C@@H]2O[C@](O)(C[C@@H](O)C[C@@H](O)[C@H](O)CC[C@@H](O)C[C@@H](O)CC(=O)O[C@H]1C)C[C@H](O)[C@H]2C(=O)O,DSY1751,-,0.1 µM
CC1=CC(=O)C(C(=O)/C=C/c2ccccc2)=C1O,ATCC 90028,-,50 µg/mL
CN(C)CCCNC(=O)c1cc(NC(=O)c2cc(NC(=O)c3cc(NC(=O)c4nsc(NCCCCCCCN)c4Cl)cn3C)cn2C)cn1C,38247,-,64 µg/mL
COC(=O)c1cc(O)cc(OC)c1Oc1cc(C)cc(OC)c1C(N)=O,-,-,6.2 µg/mL
O=C(N/N=C/c1ccc(Cl)c(Cl)c1)c1ccccc1SSc1ccccc1C(=O)N/N=C/c1ccc(Cl)c(Cl)c1,-,-,125 µg/mL
N/C(=N\NC(CC(=O)c1ccc(Cl)c(Cl)c1)c1ccncc1)c1ccccn1,C873,-,20 µg/mL
CCCCC(=O)OC1CC(OC(C)C(C)C(O)C(C)C(O)C(C)C2OC(=O)/C=C/CC(O)CC(O)CC(O)CCC(C)C(O)C[C@@]3(O)O[C@H](CC(O)CC(OC(=O)CC(=O)O)CCCC(O)C4OC4C2C)C[C@H](O)[C@H]3O)OC(C)C1O,ATCC 90029,-,>100 µg/mL
CCn1cc(-c2ccc(Cl)cc2)c(C(c2ccccc2)n2ccnc2)c1,-,-,0.11 µg/mL
CN(C)CCCNC(=O)c1cc(NC(=O)c2cc(NC(=O)c3cc(NC(=O)c4nsc(NCCN5CCNCC5)c4Cl)cn3C)cn2C)cn1C,38247,-,4 µg/mL
CN(CCCC#CC(C)(C)C)c1cccc2c1CCC(=O)N2,Clinical isolate 17,-,31.25 µg/mL
O=C(N/N=C/c1ccnc2ccccc12)c1ccccc1SSc1ccccc1C(=O)N/N=C/c1ccnc2ccccc12,-,-,25–50 µg/mL
C=C1C[C@@H]2C[C@@H]3CCO[C@@H](O3)c3cccc(c3)/C=C/C[C@H]3O[C@@H](/C(C)=C/C#N)[C@H](C)[C@@H](OC(=O)/C=C/C[C@@H](C1)O2)[C@H]3C,ATCC 14503,broth dilution,>64 µg/mL
Clc1ccc(-n2ccc(C(c3ccccc3)n3ccnc3)c2)cc1,-,-,0.7 µg/mL
NNC(=O)c1cc(Cl)cc(Cl)c1SSc1c(Cl)cc(Cl)cc1C(=O)NN,-,-,250 µg/mL
COc1ccc(Br)cc1/C=N/NC(=O)Cc1cc2ccccc2cc1O,-,MTT,>150 µM
N/C(=N\NC(CC(=O)c1ccc(-c2ccccc2)cc1)c1ccncc1)c1ccccn1,C873,-,>160 µg/mL